## Genome-wide point mutation profile of HIV-1: RT

Protein: RT of HIV-1 NL4-3, numbered from its first residue.
Effects on overlapping genes or RNA elements are not listed.

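Random point mutant libraries of HIV-1 NL4-3, one for each of seven fragments, were passaged in CEM T lymphocytes. The RC index is the frequency of a change after passage round 2 divided by its frequency in the plasmid library.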

Values are the RC index; higher means better tolerated. The authors read about 0.1 or less as lethal, 0.1-0.2 as attenuated and 0.2 or more as tolerated.
Each entry names the wild-type residue, its position and the residue put in its place.
Input reads are the counts in the plasmid library.
The authors read an index above 1 as above wild type (1.9% of all changes in the genome).
Clones carried about five changes per kilobase, which can drag down the index of neutral changes.
Base changes are numbered along pNL4-3.

With N447D (base A3888G, input reads 223) the assay gave 0.0164. With L429F (base A3836T, input reads 325) the assay gave 0.0674. With Y501F (base A4051T, input reads 175) the assay gave 0.0326. L391S (base T3721C, input reads 236) read 0.0787. A114T (base G2889A, input reads 369) gave 0.178. R125S (base G2924T, input reads 83) gave 0.113. For Q407E (base C3768G, input reads 53) the result was 0.0501. H96Y (base C2835T, input reads 492) gave 0.0317.

E328G (base A3532G, input reads 214) read 0.0634. S163C (base A3036T, input reads 228) read 0.0530. With K347R (base A3589G, input reads 251) the assay gave 0.0386. P14L (base C2590T, input reads 344) gave 0.0991. W410G (base T3777G, input reads 39) read 0.204. F124S (base T2920C, input reads 256) gave 0.0244. With M164I (base G3041A, input reads 221) the assay gave 0.172. W212R (base T3183C, input reads 335) read 0.0449.

L193F (base A3128T, input reads 474) gave 0.0317. E44K (base G2679A, input reads 227) gave 0.864. G190R (base G3117A, input reads 366) gave 0.436. T84N (base C2800A, input reads 114) gave 0.0299. I94L (base A2829T, input reads 447) gave 0.0186. K11I (base A2581T, input reads 529) read 0.0524. G15R (base G2592A, input reads 276) gave 0.224. I522V (base A4113G, input reads 271) read 0.968.

L187V (base T3108G, input reads 54) read 0.139. V293L (base G3426T, input reads 180) read 0.0441. For N175S (base A3073G, input reads 257) the result was 0.0403. I2T (base T2554C, input reads 357) gave 0.0549. With K154R (base A3010G, input reads 401) the assay gave 0.0516. For Q334L (base A3550T, input reads 230) the result was 0.0253. With F61Y (base T2731A, input reads 315) the assay gave 0.0324. With D471N (base G3960A, input reads 111) the assay gave 0.976.

For F61L (base T2732A, input reads 99) the result was 0.0172. S68T (base G2752C, input reads 95) read 0.0896. Q145L (base A2983T, input reads 256) read 0.0269. For Q207P (base A3169C, input reads 67) the result was 0.0841. For L234H (base T3250A, input reads 337) the result was 0.00420. With T477A (base A3978G, input reads 164) the assay gave 0.0695. For G436R (base G3855A, input reads 109) the result was 0.837. With L100F (base A2849T, input reads 374) the assay gave 0.0362.

S163R (base C3038A, input reads 122) gave 0.0990. D67Y (base G2748T, input reads 96) read 0.106. With Q336L (base A3556T, input reads 403) the assay gave 0.0673. K13R (base A2587G, input reads 204) read 0.115. With T296P (base A3435C, input reads 72) the assay gave 0.0661.

2 of these entries, quoted again:

{"mutation": "W410G", "base": "T3777G", "input reads": "39", "RC index": 0.204}
{"mutation": "S68T", "base": "G2752C", "input reads": "95", "RC index": 0.0896}

Values reported by Al-Mawsawi et al. 2014 (doi:10.1186/s12977-014-0124-6).